The text below walks through data of PubChem BioAssay AID540299 (ICCB-Longwood Screening Facility, Harvard Medical School, 2011).

Protein sequences, listed by entry. Tags and fused reporters are not part of them. Lines headed by an entry give the natural chain unless they say otherwise; changes in a name come on top.
UniProt P9WNP5: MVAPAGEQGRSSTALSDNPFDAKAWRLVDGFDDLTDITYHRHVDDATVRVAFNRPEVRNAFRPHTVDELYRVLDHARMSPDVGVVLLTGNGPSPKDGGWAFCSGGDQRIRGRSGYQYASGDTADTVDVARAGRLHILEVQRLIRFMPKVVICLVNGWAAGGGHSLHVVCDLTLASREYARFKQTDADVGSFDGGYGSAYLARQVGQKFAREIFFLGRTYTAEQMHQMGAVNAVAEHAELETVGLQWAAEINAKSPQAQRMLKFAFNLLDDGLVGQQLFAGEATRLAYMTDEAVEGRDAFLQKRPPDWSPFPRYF

Only a part is listed here, and it is no random draw. Active and inactive are the calls of the source. No stated cut-off is given here; in the data, active means inhibition above about 21% (passing the limit was not always enough); inactive means the rest.

What is called inhibition is the percentage by which the read-out fell short of the control.

The target in the assay is 1,4-dihydroxy-2-naphthoyl-CoA synthase (Mycobacterium tuberculosis (strain ATCC 25618 / H37Rv)) (UniProt P9WNP5). As to the kind of experiment: M. tuberculosis MenB inhibitors, primary screen, biochemical, absorbance (AID 540299). To be noted: MenB enzyme assay, absorbance read-out; hits give high values; concentration not given here.
Take `CCOP(OCC)N1CCOCC1`: the inhibition was active: 28.2%.
